{
  "source": "patent EP0692191A1",
  "about": "“UTILIZATION OF PHENYL COMPOUNDS FOR THE CONTROL OF PHYTOPARASITE NEMATODES” (UNIVERSIDAD DE LA LAGUNA, priority 1993, dated 1995)",
  "origin": "cited, not measured here",
  "settings": "comparison values on the scale of Repeto; cited from earlier work",
  "data": [
    {"substance": "CINa", "values": [
      {"measurement": "toxisches Potential pT50", "result": "1,35"}
    ]}
  ]
}
